{
  "source": "PubChem BioAssay AID488895",
  "about": "(Broad Institute, 2010)",
  "note": "This is a selection; strong and weak results do not stand in their true shares. Calls of active or inactive are those of the source.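 How the source made its calls: active means mean replicate inhibition at least 50% and at least half of replicates individually reaching 50%; inconclusive means only one of the two criteria met; inactive means neither criterion met.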",
  "data": [
    {"assay": "blockers of twin-arginine translocation in E. coli – MC4100, TorA-mCherry reporter, fluorescence, single point, primary screen (AID 488895);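 further: exported cargo escapes ClpAP degradation while cytoplasmic cargo is degraded and loses fluorescence; 0% = median of neutral control wells and 100% = median of NaSCN control wells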", "settings": "E. coli MC4100 TorA-mCherry Tat export, at 10 µM, active compounds read high", "values": [
      {"smiles": "CN(C(=O)Cc1ccc(Cl)c(Cl)c1)[C@H]1CCCC[C@H]1N1CCCC1", "inhibition": "inactive: -0.531%"},
      {"smiles": "NC(=O)c1cc([N+](=O)[O-])cc([N+](=O)[O-])c1N", "inhibition": "inactive: 2.5%"},
      {"smiles": "O=C(NC(Sc1ccncn1)C(Cl)(Cl)Cl)c1ccccc1", "note": "(stereo not given)", "inhibition": "inactive: 3.05%"},
      {"smiles": "Oc1ccccc1CNc1ccccn1", "inhibition": "inactive: 2.02%"},
      {"smiles": "Nc1cc(N)c2nonc2c1[N+](=O)[O-]", "inhibition": "inactive: 3.26%"},
      {"smiles": "CC(C)CC(=O)NC(Sc1ccc(Cl)cc1)C(Cl)(Cl)Cl", "note": "(stereo not given)", "inhibition": "inactive: 3.14%"},
      {"smiles": "CN(C(=O)Cc1ccc(Cl)c(Cl)c1)[C@H]1CCCC[C@@H]1N1CCCC1", "inhibition": "inactive: 8.77%"},
      {"smiles": "Cc1ccc(NP(=O)(Oc2ccccc2F)Oc2ccccc2F)nc1", "inhibition": "inactive: -4.37%"},
      {"smiles": "Cc1cc(SC(NC(=O)c2ccc(F)cc2)C(Cl)(Cl)Cl)ncn1", "note": "(stereo not given)", "inhibition": "inactive: -1.34%"},
      {"smiles": "CCOP(=O)(Nc1ccccc1)OCC", "inhibition": "inactive: -9.79%"},
      {"smiles": "O=P(Nc1nc2ccc(Cl)cc2s1)(c1ccccc1)c1ccccc1", "inhibition": "inactive: 3.49%"},
      {"smiles": "CCCC1OP(N)(=O)OCC1CC", "note": "(stereo not given)", "inhibition": "inactive: -4.06%"},
      {"smiles": "CC(=O)Nc1ccc([As](=O)(O)O)cc1", "inhibition": "inactive: -5.36%"},
      {"smiles": "O=C(O)c1ccccc1[As](=O)(O)O", "inhibition": "inactive: 7.99%"},
      {"smiles": "Nc1cccc2ccc([As](=O)(O)O)cc12", "inhibition": "inactive: -8.02%"},
      {"smiles": "CCN(N=Nc1nonc1N)c1nonc1N", "inhibition": "inactive: -2.43%"},
      {"smiles": "O=C(Nc1cc([As](=O)(O)O)ccc1O)c1ccccc1", "inhibition": "inactive: -4.69%"},
      {"smiles": "O=P1(N(CCCl)CCCl)OCCCS1", "note": "(stereo not given)", "inhibition": "inactive: 3.53%"},
      {"smiles": "O=C(O)CNc1ccc([As](=O)(O)O)cc1", "inhibition": "inactive: -6.18%"},
      {"smiles": "COC(=O)C1(C)COP(=O)(Nc2ccccc2)OC1", "note": "(stereo not given)", "inhibition": "inactive: -3.38%"},
      {"smiles": "O=[N+]([O-])c1cccc(NC2=NCC(CBr)S2)c1", "note": "(stereo not given)", "inhibition": "inactive: 4.34%"},
      {"smiles": "O=[N+]([O-])c1ncn(CCn2ncnc2[N+](=O)[O-])n1", "inhibition": "inactive: -6.79%"},
      {"smiles": "CC(C)(C)C(=O)NC(Sc1ccncn1)C(Cl)(Cl)Cl", "note": "(stereo not given)", "inhibition": "inactive: -0.815%"},
      {"smiles": "O=[N+]([O-])c1cc([N+](=O)[O-])c(CCNc2ccccc2)c([N+](=O)[O-])c1", "inhibition": "inactive: -2.49%"},
      {"smiles": "CCc1nc2c(n1)c1c(non1O)c1c2no[n+]1[O-]", "inhibition": "inactive: -3.85%"},
      {"smiles": "Cc1ccc(NP(=O)(Oc2ccccc2)Oc2ccccc2)nc1", "inhibition": "inactive: 2.41%"},
      {"smiles": "CC(=O)N1C2C3N(C(C)=O)C1C1N(C(C)=O)C(C(N1C(C)=O)N3C(C)=O)N2C(C)=O", "inhibition": "inactive: -2.51%"},
      {"smiles": "O=[N+]([O-])c1cccc2n[nH]nc12", "inhibition": "inactive: -8.39%"},
      {"smiles": "COc1ccc(C2=NCC(CBr)S2)cc1", "note": "(stereo not given)", "inhibition": "inactive: -0.41%"},
      {"smiles": "CC1CCN(C(=O)Oc2c(Cl)cc(Cl)c3cccnc23)CC1", "inhibition": "inactive: 5.72%"},
      {"smiles": "CN(C)C(=O)OCCc1n(C)cc[n+]1C", "inhibition": "inactive: 5.88%"},
      {"smiles": "CC(C)=N/N=C(\\N)N[N+](=O)[O-]", "inhibition": "inactive: -6.79%"},
      {"smiles": "CCN(/C(=N/P(=O)(N1CCOCC1)N1CCOCC1)N1CCOCC1)c1ccc(OC)cc1", "inhibition": "inactive: -10.2%"},
      {"smiles": "C[N+]1=C2C=CC=CC=C2SC12C([N+](=O)[O-])=CC([N+](=O)[O-])=C[C-]2[N+](=O)[O-]", "note": "(stereo not given)", "inhibition": "inactive: -2.82%"},
      {"smiles": "Nc1ccc([As](=O)(O)c2ccc(N)cc2)cc1", "inhibition": "inactive: 1.23%"}
    ]}
  ]
}
